Measurements reported in PubChem BioAssay AID504761 (Drosophila RNAi Screening Center, 2011)
Purpose: 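Fly genes whose silencing reduces dengue virus type 2 infection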 (primary screen). Cells: D.Mel-2 cells from Drosophila. Knock-down reagent: long dsRNA against Drosophila genes. Challenge: infection with dengue virus type 2; dose and infection time not stated. Measurement: 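Per well on two replicate plates, imaging gave the percent of cells positive for viral envelope protein, ranked by infection, and a nuclear count of cells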. Direction: infection score: higher = more virus-infected cells; cell count: higher = more cells in the well. Call rule: 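Very low infection ranking in both replicate wells (chance probability at most 0.065), then a retest showing infection dropped 1.5-fold or more at p below 0.05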. Calls: active = confirmed: knock-down lowers infection; inactive = not picked or not confirmed.
The deposit covers about 22,000 reagents; shown is an unselected part of those that have a named target and a result. Of all reagents, 116 (0.52%) got an active call. 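Calls depend on retest data that are not deposited; infection was ranked per plate without normalising between plates; the unit of the infection score is not given.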 Raw values are not corrected between plates. Reagents against one gene are numbered here. A plus sign joins genes that one reagent is predicted to hit. Reagent sequences are not shown. The record does not give: the amount of reagent, the time to read-out.

Gene | reagent no. | infection score, replicate 1 | infection score, replicate 2 | cell count, replicate 1 | cell count, replicate 2 | call
CG13751 | 1 | 21.5 | 19.8 | 6231 | 4030 | inactive
CG12951 | 1 | 1.75 | 8.53 | 6819 | 6367 | inactive
CG12951 | 2 | 5.82 | 8.92 | 6550 | 6241 | inactive
CG6431 | 1 | 2.61 | 4.88 | 6463 | 6431 | inactive
msn | 1 | 1.13 | 1.39 | 6364 | 5884 | inactive
msn | 2 | 6.49 | 2.54 | 6298 | 6074 | inactive
msn | 3 | 9.45 | 2.42 | 5924 | 6366 | inactive
CG3862 | 1 | 3.48 | 1.11 | 6233 | 6152 | inactive
CG3862 | 2 | 14.6 | 11.3 | 3733 | 4225 | inactive
Fsn | 1 | 5.7 | 2.98 | 6512 | 6345 | inactive
Fsn | 2 | 3.89 | 12 | 6497 | 6190 | inactive
PXo | 1 | 6.74 | 11.5 | 2255 | 2967 | inactive
bam | 1 | 20.2 | 2.08 | 5642 | 6775 | inactive
CG5466 | 1 | 3.25 | 4.62 | 6119 | 6390 | inactive
CG5466 | 2 | 5.71 | 6.08 | 6567 | 6584 | inactive
CG14024 | 1 | 3.38 | 4.31 | 5942 | 6260 | inactive
CG14024 | 2 | 4.99 | 1.22 | 6151 | 6417 | inactive
Mrp5 | 1 | 27 | 4.05 | 5641 | 6989 | inactive
Mrp5 | 2 | 17.5 | 15.3 | 5677 | 2443 | inactive
Mrp5 | 3 | 9.05 | 8.87 | 6541 | 6302 | inactive
gogo | 1 | 5.43 | 7.12 | 6557 | 6704 | inactive
gogo | 2 | 9.12 | 10 | 6680 | 6590 | inactive
CG32021 (retired record) | 1 | 10.9 | 8.72 | 6633 | 3897 | inactive
CG32021 (retired record) | 2 | 6.6 | 3.1 | 5684 | 5805 | inactive
Sumo | 1 | 14 | 9.21 | 3228 | 3704 | inactive
CG9812 | 1 | 13.1 | 11.4 | 3966 | 5519 | inactive
prg | 1 | 7.55 | 2.45 | 6104 | 6602 | inactive
Rack1 | 1 | 3.35 | 2.03 | 4748 | 5161 | inactive
Rack1 | 2 | 1.23 | 2.06 | 5780 | 5818 | inactive
CG2614 | 1 | 10.5 | 3.23 | 6480 | 6956 | inactive
CG15673 | 1 | 6.39 | 4.16 | 6747 | 6925 | inactive
Gyg | 1 | 0.08 | 0.34 | 5996 | 5362 | inactive
Gyg | 2 | 9.68 | 6.95 | 6033 | 6070 | inactive
Gyg | 3 | 3.96 | 13.9 | 3785 | 2661 | inactive
tll | 1 | 4.92 | 4.16 | 4328 | 6584 | inactive
tll | 2 | 8.29 | – | 2377 | 358 | inactive
CG12535 | 1 | 3.75 | 1.79 | 853 | 1616 | inactive
Sf3b6 | 1 | 1.67 | 4.12 | 4600 | 3957 | inactive
Sf3b6 | 2 | 4.91 | 16.2 | 5113 | 4506 | inactive
Octbeta2R | 1 | 3.87 | 14.3 | 6224 | 6073 | inactive
Octbeta2R | 2 | 1.21 | 12.2 | 6438 | 7179 | inactive
Octbeta2R | 3 | 3.33 | 3.85 | 6884 | 6902 | inactive
Octbeta2R | 4 | 1.94 | 1.96 | 5916 | 5927 | inactive
CG14770 | 1 | 1.02 | 11.9 | 6395 | 4860 | inactive
sosie | 1 | – | – | 339 | 359 | inactive
sosie | 2 | 2.36 | 8.72 | 5471 | 5311 | inactive
sosie | 3 | 6.52 | 7.5 | 6230 | 6203 | inactive
CG8157 | 1 | 4.37 | 6.87 | 6595 | 5775 | inactive
CG8157 | 2 | 32.9 | 17.6 | 6072 | 6805 | inactive
CG8157 | 3 | 3.32 | 1.38 | 6786 | 6378 | inactive
stck | 1 | 7.09 | 5.32 | 6294 | 6916 | inactive
Ankrd49 | 1 | 2.78 | 14.8 | 6445 | 6301 | inactive
Ankrd49 | 2 | 0.94 | 16.8 | 636 | 5759 | inactive
CG12511 | 1 | 3.96 | 1.29 | 6111 | 6874 | inactive
PpY-55A | 1 | 7.18 | 10.1 | 6542 | 6531 | inactive
PpY-55A | 2 | 0.78 | 21 | 6265 | 6176 | inactive
PpY-55A | 3 | 14.1 | 19.5 | 5870 | 6751 | inactive
Sf3b3 | 1 | 5.09 | 6.31 | 2336 | 1188 | inactive
SMC2 | 1 | 6.69 | 8.17 | 4993 | 5226 | inactive
SMC2 | 2 | 6.35 | 2.19 | 2424 | 4875 | inactive
CG32302 | 1 | 5.12 | 1.06 | 6128 | 6962 | inactive
CG10616 | 1 | 9.97 | 13.5 | 5579 | 5609 | inactive
CG8478 | 1 | 3.57 | 4.58 | 6865 | 6468 | inactive
CG3308 | 1 | 10.3 | 3.64 | 6522 | 6914 | inactive
rols | 1 | 3.35 | 5.74 | 6322 | 5901 | inactive
rols | 2 | 6.04 | 1.3 | 5881 | 6557 | inactive
rols | 3 | 0.96 | 2.65 | 6266 | 6233 | inactive
CG14464 | 1 | 3.67 | 4.67 | 6212 | 6381 | inactive
CG12817 + CG12420 | 1 | 1.83 | 2.99 | 5804 | 6918 | inactive
betaTub65B | 1 | 1.81 | 9.81 | 5637 | 5777 | inactive
Alms1b + Alms1a | 1 | 2.79 | 4.39 | 6067 | 6679 | inactive
Alms1b + Alms1a | 2 | 8.72 | 6.85 | 5926 | 6818 | inactive
CG16959 | 1 | 17.7 | 12.3 | 5919 | 5906 | inactive
CG1542 | 1 | 8.08 | 4.09 | 5150 | 5579 | inactive
CG1542 | 2 | 10.1 | – | 1030 | 415 | inactive

An excerpt of the results above, for reference:
Gene | reagent no. | infection score, replicate 1 | infection score, replicate 2 | cell count, replicate 1 | cell count, replicate 2 | call
PpY-55A | 3 | 14.1 | 19.5 | 5870 | 6751 | inactive
Sf3b3 | 1 | 5.09 | 6.31 | 2336 | 1188 | inactive
SMC2 | 1 | 6.69 | 8.17 | 4993 | 5226 | inactive
SMC2 | 2 | 6.35 | 2.19 | 2424 | 4875 | inactive
CG32302 | 1 | 5.12 | 1.06 | 6128 | 6962 | inactive
CG10616 | 1 | 9.97 | 13.5 | 5579 | 5609 | inactive
CG8478 | 1 | 3.57 | 4.58 | 6865 | 6468 | inactive
CG3308 | 1 | 10.3 | 3.64 | 6522 | 6914 | inactive
rols | 1 | 3.35 | 5.74 | 6322 | 5901 | inactive
rols | 2 | 6.04 | 1.3 | 5881 | 6557 | inactive
rols | 3 | 0.96 | 2.65 | 6266 | 6233 | inactive
